Test results as given in paper PMC12851581, “Allosteric effects of the coupling cation in melibiose transporter MelB” (eLife, 2026).

Chains of the proteins cited; added tags and fusions are not shown.
UniProt P30878, whole entry D59C: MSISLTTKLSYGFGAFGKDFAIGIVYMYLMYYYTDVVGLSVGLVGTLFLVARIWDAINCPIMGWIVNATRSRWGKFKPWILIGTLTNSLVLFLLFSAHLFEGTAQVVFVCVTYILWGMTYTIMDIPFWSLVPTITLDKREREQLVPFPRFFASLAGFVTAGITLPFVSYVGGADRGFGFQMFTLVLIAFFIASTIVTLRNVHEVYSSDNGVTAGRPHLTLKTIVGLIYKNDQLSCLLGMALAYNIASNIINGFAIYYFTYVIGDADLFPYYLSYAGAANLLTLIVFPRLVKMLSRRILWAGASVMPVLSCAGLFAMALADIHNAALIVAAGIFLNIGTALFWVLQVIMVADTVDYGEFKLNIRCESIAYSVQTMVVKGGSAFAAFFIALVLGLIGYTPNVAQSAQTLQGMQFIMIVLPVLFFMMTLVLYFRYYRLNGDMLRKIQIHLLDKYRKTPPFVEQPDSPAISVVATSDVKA

Biological target: T1, melibiose permease MelBSt (D59C uniporter mutant) (Salmonella enterica, UniProt P30878, D59C)
T1 construct: gene melB; D59C MelBSt/CHis10; modeled from positions 2–453 or 455
Assay: X-ray crystal structure, […] Å ([…] Å in Methods); ITC also run
Format: binding

For `OC[C@H]1O[C@H](OC[C@H]2O[C@H](O[C@]3(CO)O[C@H](CO)[C@@H](O)[C@@H]3O)[C@H](O)[C@@H](O)[C@@H]2O)[C@H](O)[C@@H](O)[C@H]1O` [raffinose, Raffinose], the “X-ray crystal structure, 3.40 Å (3.45 Å in Methods); ITC also run” value was “density map displayed a clear three-unit blob in the binding pocket, fitting well with this trisaccharide”.
